According to patent publication US5854049:

Tests used:
[1] = target: purified human Glu-plasminogen (American Diagnostica, 98% Glu-type plasminogen) (human) (UniProt P00747)
[2] = target: purified human Glu-plasminogen (American Diagnostica, 98% Glu-type plasminogen) (human) (UniProt P00747); remark: listed apart in the source

Substance | amidolytic kinetic parameters of the SK-PAC on S2251: Km (µM), Kcat (S^-1), kcat/Km (µM^-1 S^-1) [1] | lag phase of plasminogen activation (S2251 hydrolysis, absorption at 405 nm, 21° C.) [2]
rSK5mut (multiple mutant containing R10A, K36A, R45A, K51A, and K59A) | 0.675 µM^-1 S^-1 | –
rSKΔ14 (fusion protein with MBP linked to the amino terminus of nSK in which the amino terminal 13 amino acids of nSK were deleted) | 0.096 µM^-1 S^-1 | 250 s
